Key:
[1] = test system: Human HCT-116 colon cancer cells; assay: Cytotoxicity evaluation on HCT-116 cell line (SRB); assay type: cell-based; settings: HCT116 CC50 / anti-Mtb MIC
Experimental: (§1) The biological activity of the compounds of the present invention were evaluated. The activity against mycobacteria (Mtb) was assessed by minimum inhibitory concentration values (MIC, µM) determination. The selectivity index (SI) is defined as: SI = (CC50)/(MIC) [formula] wherein CC50 refers to the half maximal cytotoxic concentration of compounds towards particular eukaryotic cells, either for HCT116 cells and/or VERO cells; MIC refers to the minimum inhibitory concentration of the compounds towards mycobacteria.
Human HCT-116 colon cancer cells were seeded in 96-well plates (2500 cells/well) 24 hours before being treated for 72 hours with the tested compounds. Cells were grown and treated in DMEM 10% FBS. For each compound, 11 concentrations, corresponding to twofold serial dilutions from the maximum concentration, were evaluated, with each concentration tested in duplicate. DMSO was set at 0.5% final concentration in each well, including in the untreated conditions. At the end of the treatment, cells were fixed 1 hour at 4°C by addition of cold 10 % trichloroacetic acid to a final 3.33 % concentration, then washed 4 times with water. The plates were dried and the cells stained for 30 minutes with 0.057 % (wt/vol) Sulforhodamine B (SRB) in 1% acetic acid, then washed 4 times with 1% acetic acid and dried. The dye was resuspended by a 1 h 30 incubation in 200 µL of 10 mM Tris-base and the absorbance at 490 nm measured with a plate reader (µquant, Bio-tek). For normalization, the background value was subtracted to each value, the duplicates averaged and the untreated condition set to 100% cell viability. CC50 were computed from at least three independent experiments using the GraphPad Prism software using a non-linear regression to a four-parameter logistic curve (log[inhibitor] vs response; variable slope).

Vero cell line = assay: Cytotoxicity evaluation on Vero cell line (MTT); assay type: cell-based; settings: VERO CC50 / anti-Mtb MIC
Experimental: as §1
Cytotoxicity evaluation of the tested molecules by MTT assay was performed on the Vero cell line. Briefly, cells (5.10^4 cells/mL) in 100 µL of complete medium [MEM supplemented with 10% fetal calf serum (FCS), 2 mM L-glutamine and antibiotics (100U/mL penicillin and 100 µg/mL streptomycin)] were seeded into each well of 96-well plates and incubated at 37 °C in a humidified 5% CO2 with 95% air atmosphere. After a 24 h incubation, 100 µL of medium with various product concentrations and appropriate controls were added and the plates were incubated for 72 h at 37 °C. Each plate-well was then microscope-examined for detecting possible precipitate formation before the medium was aspirated from the wells. 100 µL of MTT solution (0.5 mg/mL in complete MEM) were then added to each well. Cells were incubated for 1 h at 37 °C and the MTT solution was then removed, and DMSO (100 µL/well) was added to dissolve the resulting formazan crystals. Plates were shaken vigorously (300 rpm) for 5 min. The absorbance was measured at 570 nm with a microplate spectrophotometer (BIOTEK Eon). DMSO was used as blank and SDS as positive control. CC50 were calculated by non-linear regression analysis processed on dose-response curves, using TableCurve 2D V5 software.

| Structure (SMILES) | SI (CC50/MIC) [1] | SI (CC50/MIC) (Vero cell line) |
| --- | --- | --- |
| CCCCCCCCCCCC(O)C#CCO (racemic) [Compound 1, Pentadec-2-yne-1,4-diol] | 48 (HCT116) | 71 (VERO) |
| CCCCCCCCCCCCC#CCO [Comparative example A, reference compound] | 24 (HCT116) | 37 (VERO) |
| C=CC(O)C#CC(O)CCCCCCCCCCC (centres unmarked) [Compound 2, Heptadec-1-en-4-yne-3,6-diol] | 1.6 (HCT116) | 6 (VERO) |
| C=C=CC(O)C#CC(O)CCCCCCCCCCC (centres unmarked) [Compound 3, Octadeca-1,2-dien-5-yne-4,7-diol] | 3.6 (HCT116) | 3.2 (VERO) |
| C#CC(O)C#CC(O)CCCCCCCCCCC (centres unmarked) [Compound 4, Heptadeca-1,4-diyne-3,6-diol] | 13 (HCT116) | 8 (VERO) |
| CCCCCCCCCCCC(O)C#CC(O)c1ccccc1 (centres unmarked) [Compound 5, 1-Phenylpentadec-2-yne-1,4-diol] | 40 (HCT116) | 37 (VERO) |
| CCCCCCCCCCCC(O)C#CC(O)CC (centres unmarked) [Compound 6, Heptadec-4-yne-3,6-diol] |  | 17 (VERO) |
| CCCCCCCCCCCC(O)C#CC(O)C1CC1 (centres unmarked) [Compound 7, 1-Cyclopropylpentadec-2-yne-1,4-diol] |  | 146 (VERO) |
| CCCCCCCCCCCC(O)C#CC(O)C(C)(C)C (centres unmarked) [Compound 8, 2,2-Dimethylheptadec-4-yne-3,6-diol] | 4 (HCT116) |  |
| CCCCCCCCCCCC(O)C#CC(O)C(CC)CC (centres unmarked) [Compound 9, 3-Ethyloctadec-5-yne-4,7-diol] | 4 (HCT116) |  |
| CCCCCCCCCCCC(O)C#CC(O)C1CCCC1 (centres unmarked) [Compound 10, 1-Cyclopentylpentadec-2-yne-1,4-diol] | 4 (HCT116) |  |
| CCCCCCCCCCCC(O)C#CC(O)C1CCCCC1 (centres unmarked) [Compound 11, 1-Cyclohexylpentadec-2-yne-1,4-diol] | 4 (HCT116) |  |
| C=CC(O)C#CCC(O)CCCCCCCCCC (centres unmarked) [Compound 12, Heptadec-1-en-4-yne-3,7-diol] | 1.6 (HCT116) | 10 (VERO) |
| C=C=CC(O)C#CCC(O)CCCCCCCCCC (centres unmarked) [Compound 13, Octadeca-1,2-dien-5-yne-4,8-diol] | 20 (HCT116) |  |
| C#CC(O)C#CCC(O)CCCCCCCCCC (centres unmarked) [Compound 14, Heptadeca-1,4-diyne-3,7-diol] | 3 (HCT116) | 290 (VERO) |
| CCCCCCCCCCC(O)CC#CC(O)c1ccccc1 (centres unmarked) [Compound 15, 1-Phenylpentadec-2-yne-1,5-diol] | 16 (HCT116) | 30 (VERO) |
| CCCCCCCCCCC(O)CC#CC(O)CC (centres unmarked) [Compound 16, Heptadec-4-yne-3,7-diol] | 10 (HCT116) | 15 (VERO) |
| CCCCCCCCCCC(O)CC#CC(O)C1CC1 (centres unmarked) [Compound 17, 1-Cyclopropylpentadec-2-yne-1,5-diol] | 67 (HCT116) | 74 (VERO) |
| C=CC(O)C#CCCCCCCCCCCCC (centres unmarked) [Compound 18, Heptadec-1-en-4-yn-3-ol] | < 0.1 (HCT116) | 0.4 (VERO) |
| C=C=CC(O)C#CCCCCCCCCCCCC (centres unmarked) [Compound 19, Octadeca-1,2-dien-5-yn-4-ol] | 1.1 (HCT116) |  |
| C#CC(O)C#CCCCCCCCCCCCC (centres unmarked) [Compound 20, Heptadeca-1,4-diyn-3-ol] | < 0.1 (HCT116) | 0.7 (VERO) |
| CCCCCCCCCCCCC#CC(O)c1ccccc1 (centres unmarked) [Compound 21, 1-Phenylpentadec-2-yn-1-ol] | 41 (HCT116) | 42 (VERO) |
| CCCCCCCCCCCCC#CC(O)CC (centres unmarked) [Compound 22, Heptadec-4-yn-3-ol] | 5 (HCT116) | > 20 (VERO) |
| CCCCCCCCCCCCC#CC(O)C1CC1 (centres unmarked) [Compound 23, 1-Cyclopropylpentadec-2-yn-1-ol] | < 6 (HCT116) | < 16 (VERO) |
| CCCCCCCCCCCCC#CC(O)C(C)(C)C (centres unmarked) [Compound 24, 2,2-Dimethylheptadec-4-yn-3-ol] | < 6 (HCT116) |  |
| CCCCCCCCCCCCC#CC(O)C(CC)CC (centres unmarked) [Compound 25, 3-Ethyloctadec-5-yn-4-ol] | < 12 (HCT116) |  |
| CCCCCCCCCCCCC#CC(O)C1CCCC1 (centres unmarked) [Compound 26, 1-Cyclopentylpentadec-2-yn-1-ol] | < 10 (HCT116) |  |
| CCCCCCCCCCCCC#CC(O)C1CCCCC1 (centres unmarked) [Compound 27, 1-Cyclohexylpentadec-2-yn-1-ol] | 6 (HCT116) |  |
